Results as given in ChEMBL document CHEMBL1212803, “Resistance-associated mutations to etravirine (TMC-125) in antiretroviral-naïve patients infected with non-B HIV-1 subtypes” (2010).

Key:
[1] = system: Human immunodeficiency virus 1; test: Antiviral activity against HIV-1 subtype CRF02_AG containing reverse transcriptase Y181C/V35T, V60I, I135V, S162A, K173T, Q174K, N175Y, D177E, T200A, Q207E, R211K, H221Y mutant relative to control; assay type: functional
[2] = system: Human immunodeficiency virus 1; test: Antiviral activity against HIV-1 subtype CRF02_AG containing reverse transcriptase A98G/V35T, V60I, I135L, S162A, K173A, Q174K, D177E, I178M, T200A,Q207E, R211K, V245Q, D250E mutant relative to control; assay type: functional

With `O=C1Nc2ccc(Cl)cc2[C@@](C#CC2CC2)(C(F)(F)F)O1` [EFAVIRENZ] the “Ratio IC50” value [1] was 9.9 and the “Ratio IC50” value [2] was 3.6.
